This test deals with IFN-γ receptor on human cells (no IFN-γ added), human, P15260 18-489. The experiment in a line: […] paragraph 293 uses this token for binding not detectable.

Take LcrV68-326, N-terminally truncated LcrV: the result is “no binding (tested: ≧10^-3 (Molar Kd))”.
